Laboratory results published in article PMC3504009 (PLoS ONE, 2012).

Target: YscUCC-His6, wild type, from GST-YscUC-His6 (Y. pseudotuberculosis, UniProt P69987)

B1: GST-YscUCN, the GST-carrying N-terminal fragment of GST-YscUC-His6 (domain or fragment)
chain: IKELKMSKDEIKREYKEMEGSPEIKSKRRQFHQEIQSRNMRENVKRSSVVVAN
- binding result: binds
